Results of unrelated studies side by side (data: NIAID ChemDB).

Shared fields: tests in culture

Two numbers with a dash give a range or band. Conditions beyond the fields shown may differ between rows. A number after MIC or MFC names an inhibition level or a share of isolates. Blank or dashed fields: not listed here.

compound	agent	measure	strain	method	result
COc1ccc(CNC(=O)c2c(Cl)nc3ccccn23)cn1	Mycobacterium ulcerans	MIC50		fluorescence	1–10 µg/mL
CN[C@@H]1[C@H](O[C@H]2[C@H](O[C@H]3[C@H](O)[C@@H](O)[C@H](N=C(N)N)[C@@H](O)[C@@H]3N=C(N)N)O[C@@H](C)[C@]2(O)C=O)O[C@@H](CO)[C@H](O)[C@H]1O	Mycobacterium avium complex	MIC	N-951 (HIV+)		4 µg/mL
CC(C)(C)OC(=O)N1CCC2(CC1)CCN(c1ncnc3ccccc13)CC2	Mycobacterium bovis BCG	MIC50		luminescence	>10 µM
O=C(COC(Cn1nnnc1-c1ccccc1)c1ccc(Cl)cc1)N/N=C/c1ccc(Cl)cc1	Mycobacterium luteus	MIC	ATCC 21881	broth dilution	100 µg/mL
Cc1cc(C)nc(Oc2ccc(Nc3ncnc4ccccc34)cc2)n1	Mycobacterium bovis BCG	MIC50		luminescence	>20 µM
NNC(=O)c1ccncc1	Mycobacterium avium intracellulare	MIC	N-481 (HIV-)		8 µg/mL
Cc1cc(C)n(C(=O)COC(Cn2nnnc2-c2ccccc2)c2ccc(Cl)cc2)n1	Mycobacterium luteus	MIC	ATCC 21881	broth dilution	50 µg/mL
O=C(NCc1ccc(OC(F)F)cc1)c1c(Cl)nc2ccccn12	Mycobacterium ulcerans	MIC50		fluorescence	0.1–1 µg/mL
CC1(C)S[C@@H]2[C@H](NC(=O)C(C(=O)O)c3ccccc3)C(=O)N2[C@H]1C(=O)O	Mycobacterium avium intracellulare	MIC	CIPT 140310031		15 µg/mL
Fc1ccc2c(Nc3ccc(Oc4cccc(C(F)(F)F)c4)cc3)ncnc2c1	Mycobacterium bovis BCG	MIC50		luminescence	>20 µM
O=C(COC(Cn1nnnc1Cc1ccccc1)c1ccc(Cl)cc1)NNC(=S)Nc1ccccc1	Mycobacterium luteus	MIC	ATCC 21881	broth dilution	100 µg/mL
FC(F)(F)c1ccc(Oc2ccc(Nc3nccc4ccccc34)cc2)cc1	Mycobacterium bovis BCG	MIC50		luminescence	>20 µM
Cc1cc(CNC(=O)c2c(Cl)nc3ccccn23)c2[nH]c(C)c(C)c2c1	Mycobacterium ulcerans	MIC50		fluorescence	>10 µg/mL
FS(F)(F)(F)(F)c1ccc(CCNc2ncnc3ccsc23)cc1	Mycobacterium bovis BCG	MIC50		luminescence	>50 µM
CN1CCN(c2ccc(CNC(=O)c3c(Cl)nc4ccccn34)cn2)CC1	Mycobacterium ulcerans	MIC50		fluorescence	>10 µg/mL
NC[C@H]1O[C@H](O[C@H]2[C@H](O)[C@@H](O[C@H]3O[C@H](CO)[C@@H](O)[C@H](N)[C@H]3O)[C@H](N)C[C@@H]2N)[C@H](O)[C@@H](O)[C@@H]1O	Mycobacterium avium intracellulare	MIC	CIPT 140310030		5 µg/mL
FC(F)(F)c1cnc(Oc2ccc(Nc3ncnc4ccccc34)cc2)c(Cl)c1	Mycobacterium bovis BCG	MIC50		luminescence	>50 µM
Clc1ccc(C2Cn3nnnc3Cc3ccccc32)cc1	Mycobacterium luteus	MIC	ATCC 21881	broth dilution	>200 µg/mL
CO[C@H]1/C=C/O[C@@]2(C)Oc3c(C)c(O)c4c(O)c(c5c(c4c3C2=O)NC2(CCN(CC(C)C)CC2)N=5)=NC(=O)/C(C)=C\C=C\[C@H](C)[C@H](O)[C@@H](C)[C@@H](O)[C@@H](C)[C@H](OC(C)=O)[C@@H]1C	Mycobacterium avium complex	MIC	N-319 (HIV-)		0.5 µg/mL
Fc1cc(Nc2ncnc3ccccc23)ccc1N1CCOCC1	Mycobacterium bovis BCG	MIC50		luminescence	>50 µM
C[C@@H]1CN(c2c(F)c(N)c3c(=O)c(C(=O)O)cn(C4CC4)c3c2F)C[C@H](C)N1	Mycobacterium avium intracellulare	MIC	N-551 (HIV-)		4 µg/mL
CN[C@@H]1[C@H](O[C@H]2[C@H](O[C@H]3[C@H](O)[C@@H](O)[C@H](N=C(N)N)[C@@H](O)[C@@H]3N=C(N)N)O[C@@H](C)[C@]2(O)C=O)O[C@@H](CO)[C@H](O)[C@H]1O	Mycobacterium avium intracellulare	MIC	CIPT 140310021		>50 µg/mL
FC(F)(F)c1ccc(N2CCN(c3ccc(Nc4ncnc5ccccc45)cc3)CC2)nc1	Mycobacterium bovis BCG	MIC50		luminescence	>20 µM
S=c1[nH]nc(COC(Cn2nnnc2-c2ccccc2)c2ccc(Cl)cc2)n1-c1ccccc1	Mycobacterium luteus	MIC	ATCC 21881	broth dilution	50 µg/mL
FC(F)(F)c1ccc(Oc2ccc(Nc3ncnc4ccccc34)cc2)cc1	Mycobacterium bovis BCG	MIC50		luminescence	>20 µM
CC1(C)S[C@@H]2[C@H](NC(=O)[C@H](C(=O)[O-])c3ccsc3)C(=O)N2[C@H]1C(=O)[O-].[Na+].[Na+]	Mycobacterium avium intracellulare	MIC	CIPT 140310054		>75 µg/mL
CO[C@H]1/C=C/O[C@@]2(C)Oc3c(C)c(O)c4c(O)c(c(/C=N/N5CCN(C6CCCC6)CC5)c(O)c4c3C2=O)NC(=O)/C(C)=C\C=C\[C@H](C)[C@H](O)[C@@H](C)[C@@H](O)[C@@H](C)[C@H](OC(C)=O)[C@@H]1C	Mycobacterium avium intracellulare	MIC	SKV		0.5 µg/mL
C[C@@H]1CN(c2c(F)c(N)c3c(=O)c(C(=O)O)cn(C4CC4)c3c2F)C[C@H](C)N1	Mycoplasma hominis	MIC50	20 strains		≤0.01 µg/mL

For reference, 2 entries again:

{"compound": "COc1ccc(CNC(=O)c2c(Cl)nc3ccccn23)cn1", "agent": "Mycobacterium ulcerans", "measure": "MIC50", "method": "fluorescence", "result": "1–10 µg/mL"}
{"compound": "CC1(C)S[C@@H]2[C@H](NC(=O)C(C(=O)O)c3ccccc3)C(=O)N2[C@H]1C(=O)O", "agent": "Mycobacterium avium intracellulare", "measure": "MIC", "strain": "CIPT 140310031", "result": "15 µg/mL"}